A mixed list of measured activities; the numbers were collected in NIAID ChemDB.

All rows: enzyme or target tests; species: HIV-1; protein: RNase H; endpoint: IC50

Rows are shuffled and stem from different studies.

NC(=O)c1c(NC(=O)c2ccccc2F)sc2c1CCCCC2 ; method: RNase H / fluorescence ; result: 13.73 µM
CCC(=O)COc1ccc(O)c2c1C(=O)c1ccccc1C2=O ; result: 86 µM
COC(=O)c1cc(O)c(O)c(=O)cc1C ; method: RNase H / fluorescence ; result: 0.28 µM
O=C(/C=C/c1cccn1Cc1ccc(F)cc1)CC(=O)C(=O)O ; changes: R557A ; method: substrate cleavage / fluorescence ; result: 45 µM
CCOC(=O)C(=O)CC(=O)/C=C/c1cccn1Cc1ccccc1Cl ; method: RNase H / absorbance ; result: 8.5 µM
CCC(=O)COc1ccc(OC(C)=O)c2c1C(=O)c1ccccc1C2=O ; result: >100 µM
O=C(/C=C/c1cccn1Cc1ccccc1Cl)CC(=O)C(=O)O ; changes: Y501A ; method: substrate cleavage / fluorescence ; result: >100 µM
O=C(Cc1ccc2ncccc2c1)Nc1sc2c(c1C(=O)Nc1ccccn1)CCCCC2 ; method: RNase H / fluorescence ; result: 16.44 µM
Cc1ccc(Cl)cc1Nc1nc(C(F)(F)F)ccc1C(=O)NN1CCN(c2cccc(Cl)c2)CC1 ; changes: K103N ; method: RNase H / absorbance ; result: 41 µM
COC(=O)c1c(C)cc(OC)c(O)c(=O)c1OC ; method: RNase H / fluorescence ; result: 13.5 µM
Cc1nc2c(c(=O)o1)CCCCC2 ; method: RNase H / fluorescence ; result: 4.36 µM
CCOC(=O)C(=O)CC(=O)/C=C/c1cc(-c2ccccc2)cn1Cc1ccc(F)cc1 ; changes: R448A ; method: substrate cleavage / fluorescence ; result: 100 µM
Nc1sc2c(c1C(=O)Nc1ccccc1O)CCCCC2 ; method: RNase H / fluorescence ; result: >100 µM
Cc1ccc(Cn2cccc2/C=C/C(=O)CC(=O)C(=O)O)c(C)c1 ; changes: Q475A ; method: substrate cleavage / fluorescence ; result: 3.4 µM
Cc1nc2ccccc2c(=O)[nH]1 ; method: RNase H / fluorescence ; result: 3.46 µM
C#CCOc1ccc(O)c2c1C(=O)c1ccccc1C2=O ; result: >100 µM
O=C(Nc1ccccn1)c1c(NC(=O)C2CCCCC2)sc2c1CCCCC2 ; method: RNase H / fluorescence ; result: 16.6 µM
CCOC(=O)C(=O)CC(=O)/C=C/c1cccn1Cc1ccccc1Cl ; method: RNase H / fluorescence ; result: 8.7 µM
C#CCOc1ccc(OCC#C)c2c1C(=O)c1ccccc1C2=O ; result: >88 µM
CCOC(=O)c1c(C)cc(=O)c(O)c(O)c1O ; method: RNase H / fluorescence ; result: 1.1 µM
CC(=O)C(C)Oc1ccc(O)c2c1C(=O)c1ccccc1C2=O ; result: >66 µM
O=c1oc(-c2ccc(Cl)cc2)nc2sc3c(c12)CCCCC3 ; method: RNase H / fluorescence ; result: 97 µM
COc1cccc(Cn2cccc2/C=C/C(=O)CC(=O)C(=O)O)c1 ; method: substrate cleavage / fluorescence ; result: 87 µM
O=c1[nH]c(-c2ccc(O)c(O)c2)nc2sc3c(c12)CCCCC3 ; changes: p66wt/p52C280A HIV-1 RT ; method: RNase H / fluorescence ; result: 0.24 µM
COc1cccc(-c2nc3sc4c(c3c(=O)o2)CCCCC4)c1 ; method: RNase H / fluorescence ; result: 21.9 µM

Repeating the first 3 entries:

smiles	changes	method	result
NC(=O)c1c(NC(=O)c2ccccc2F)sc2c1CCCCC2	-	RNase H / fluorescence	13.73 µM
CCC(=O)COc1ccc(O)c2c1C(=O)c1ccccc1C2=O	-	-	86 µM
COC(=O)c1cc(O)c(O)c(=O)cc1C	-	RNase H / fluorescence	0.28 µM

Blank or dashed fields: not listed here. ICn: concentration for n% inhibition.